The entries are a selection whose mix differs from that of the whole data set. Active and inactive are the calls of the source. Calls come from the whole dose curve; as a rule, active = well fitted inhibition curve with a large enough effect; inconclusive = small, poorly fitted or top-dose-only effect; inactive = no such curve, though single readings can be large or run the other way. Where a call stands in place of a potency, no number is given.
test system: Plasmodium falciparum AMA1 (3D7) - RON2 peptide interaction; test: qHTS for Inhibitors of AMA1-RON; Towards Development of Antimalarial Drug Lead: Primary Screen; conditions: AlphaScreen AMA1-biotinylated RON2 peptide binding; series mostly up to 58.2 µM; note: nearly all actives have a fitted effect of over 45% in size
Potency is the fitted concentration of half-maximal effect.

Row | Compound | Potency
1 | CC(C)(C)C(=O)NC(Sc1ccncn1)C(Cl)(Cl)Cl (stereo not drawn) | inactive
2 | O=C(O)CNc1ccc([As](=O)(O)O)cc1 | inactive
3 | O=[N+]([O-])c1cccc(NC2=NCC(CBr)S2)c1 (stereo not drawn) | inactive
4 | COC(=O)C1(C)COP(=O)(Nc2ccccc2)OC1 (stereo not drawn) | inactive
5 | O=P1(N(CCCl)CCCl)OCCCS1 (stereo not drawn) | inactive
6 | O=C(Nc1cc([As](=O)(O)O)ccc1O)c1ccccc1 | inactive
7 | CCOC(=O)Nc1cccc([As](=O)(O)O)c1 | inactive
8 | Cc1cc(SC(NC=O)C(Cl)(Cl)Cl)ncn1 (stereo not drawn) | inactive
9 | O=P(Nc1ccccn1)(c1cccc2ccccc12)c1cccc2ccccc12 | inactive
10 | O=[N+]([O-])c1ccc(Nc2ccc(Oc3ccc([N+](=O)[O-])cc3[N+](=O)[O-])cc2)c([N+](=O)[O-])c1 | inactive
11 | O=C(O)C(O)c1ccc(N(CCCl)CCCl)cc1 (stereo not drawn) | inactive
12 | CCOC(=O)Nc1ccc([As](=O)(O)O)c(O)c1 | inactive
13 | CC1CCNP(=O)(N(CCCl)CCCl)O1 (stereo not drawn) | inactive
14 | COP(=O)(OC)N1CC1c1ccccc1 (stereo not drawn) | inactive
15 | CCCCOc1ccc(C(=O)NCC2(N3CCCCC3)CCCCC2)cc1OC | inactive
16 | Cc1cc(SC(NC(=O)c2ccccc2)C(Cl)(Cl)Cl)nc(C(C)C)n1 (stereo not drawn) | inactive
17 | O=C(OC1CN2CCC1CC2)c1cccc([N+](=O)[O-])c1 (stereo not drawn) | inactive
18 | CSc1ccc(Nc2c([N+](=O)[O-])cc([N+](=O)[O-])cc2[N+](=O)[O-])cc1 | active: 11.2 µM
19 | CCOC(=O)c1ccc(NC(=O)C(C)(CCl)SC)cc1 (stereo not drawn) | inactive
20 | CCC(C)N(CC(C)C)C(=S)SC(NC(C)=O)C(Cl)(Cl)Cl (stereo not drawn) | inactive
21 | COP1(=S)c2c(C)nn(CCC#N)c2N=C(c2ccc(F)cc2)N1C (stereo not drawn) | inactive
22 | COC(=O)C1(C)COP(=O)(N2CCCC2)OC1 (stereo not drawn) | inactive
23 | O=C(O)C(=O)c1ccc(N(CCCl)CCCl)cc1 | inactive
24 | O=C(COc1ccccc1)OC1CN2CCC1CC2 (stereo not drawn) | inactive

Row | Compound | Potency
25 | O=C(Nc1ccncc1[N+](=O)[O-])c1ccc([N+](=O)[O-])cc1[N+](=O)[O-] | inactive
26 | O=[N+]([O-])c1cc(Oc2ccc([N+](=O)[O-])cc2C(F)(F)F)cc([N+](=O)[O-])c1 | inactive
27 | COc1ccc(N/C(=N/P(=O)(N2CCOCC2)N2CCOCC2)N2CCOCC2)cc1 | inactive
28 | Cc1c2c(nc3ccccc13)SC(C(Cl)Cl)C2 (stereo not drawn) | inactive
29 | Cc1cc(=O)[nH]c(N[N+](=O)[O-])n1 | inactive
30 | O=P1(N(CCCl)CCCl)OCCCN1CCCl (stereo not drawn) | inactive
31 | O=P1(N(CCCl)CCCl)Nc2ccccc2N1 | inactive
32 | COc1ccc2nc(NP(=O)(c3ccccc3)c3ccccc3)sc2c1 | inactive
33 | COc1cc(I)ccc1[As](=O)(O)O | inactive
34 | ClCCSc1nnc(-c2cccnc2)o1 | inactive
35 | CC(C)c1ccc(OP(=O)(Nc2ccccn2)Oc2ccccc2F)cc1 (stereo not drawn) | inactive
36 | COC(=O)C1(C)COP(=O)(N2CCCCCC2)OC1 (stereo not drawn) | inactive
37 | O=C(OC1CN2CCC1CC2)c1cccc2[nH]cnc12 (stereo not drawn) | inactive
38 | CCN(CC)C(=S)SC(NC=O)C(Cl)(Cl)Cl (stereo not drawn) | inactive
39 | CC(C)NC(=O)NP(=O)(Oc1ccccc1)Oc1ccccc1 | inactive
40 | O=[N+]([O-])c1cc([N+](=O)[O-])c(-c2ccn[nH]2)s1 | inactive
41 | O=[As](O)(c1ccc(O)cc1)c1ccccc1O | inactive
42 | C[As](=O)(O)c1cccc(C(=O)O)c1 | inactive
43 | COc1cc(C(=O)NCC2(N3CCOCC3)CCCCC2)ccc1OCC(C)C | inactive
44 | O=[N+]([O-])c1ccc(-c2cc([N+](=O)[O-])c(O)c([N+](=O)[O-])c2)cc1 | inactive
45 | Cc1ccc(OP(=O)(Nc2ccc([N+](=O)[O-])cn2)Oc2ccc(C)cc2)cc1 | inactive
46 | [N-]=[N+]=NC1CCCCC1NC(=O)c1cc([N+](=O)[O-])cc([N+](=O)[O-])c1 (stereo not drawn) | inactive
47 | Cc1ccc2nc3c(c(C)c2c1)CC(C(Cl)Cl)S3 (stereo not drawn) | inactive
48 | NC(=O)Nc1ccc([As](=O)(O)O)cc1 | inactive

Row | Compound | Potency
49 | N#CCCN(C(=O)COC(=O)C(O)(c1ccccc1)c1ccccc1)c1ccc(F)cc1 | inactive
50 | CCOP1(=S)c2c(C)nn(CCC#N)c2N=C(c2ccc(F)cc2)N1C (stereo not drawn) | inactive
51 | CN(C(=O)Cc1ccccc1)[C@@H]1CC[C@]2(CCCO2)C[C@H]1N1CCCC1 | inactive
52 | CN(C)C(=O)c1cc([N+](=O)[O-])cc2c1-c1c(cc([N+](=O)[O-])cc1[N+](=O)[O-])C2=O | inactive
53 | O=[N+]([O-])c1ccc2c(c1)nnn2O | inactive
54 | CN(C(=O)Cc1ccc(Cl)c(Cl)c1)[C@H]1CC[C@@]2(CCCO2)C[C@@H]1N1CCCC1 | inactive
55 | CCOP1(=S)c2c(C)nn(CCC#N)c2N=C(c2ccccc2F)N1C (stereo not drawn) | inactive
56 | O=P(Nc1nccs1)(c1ccccc1)c1nc2ccccc2s1 (stereo not drawn) | inactive
57 | O=P(Nc1nccs1)(Oc1ccccc1)Oc1ccccc1 | inactive
58 | CS(=O)(=O)c1cc([N+](=O)[O-])c2no[n+]([O-])c2c1 | inactive
59 | O=C(O)COc1ccc([As](=O)(O)O)cc1[N+](=O)[O-] | inactive
60 | Nc1ccccc1[As](=O)(O)c1ccccc1 | inactive
61 | Nc1cccc2c([As](=O)(O)O)cccc12 | inactive
62 | CCCOP(=S)(Nc1nc(N)cc(=O)[nH]1)OCCC | inactive
63 | COc1cc(C2NCCC3(OCCO3)C2(C)C)cc(OC)c1OC (stereo not drawn) | inactive
64 | CCOP(=O)(Nc1cccc2ccccc12)OCC | inactive
65 | O=C(OC1CN2CCC1CC2)c1ccc(Cl)cc1 (stereo not drawn) | inactive
66 | COc1cc(C(=O)NCC2(N3CCOCC3)CCCCC2)cc(Cl)c1OC(C)C | inactive
67 | O=[As](O)(O)c1cccnc1 | inactive
68 | CS(=O)(=O)c1ccc(Cl)c(NC(=O)COC(=O)C(O)(c2ccccc2)c2ccccc2)c1 | inactive
69 | O=[As](O)(c1cccc(O)c1)c1cccc(O)c1 | inactive
70 | Cc1cccc(OCC(=O)OC2CN3CCC2CC3)c1 (stereo not drawn) | inactive
71 | COc1ccccc1CNC(=O)COC(=O)C(O)(c1ccccc1)c1ccccc1 | inactive
72 | CN(C(=O)Cc1ccc(Cl)c(Cl)c1)[C@@H]1CCCC[C@H]1N1CCCC1 | inactive

Row | Compound | Potency
73 | CC(C)/C=N\N=C(\N)N[N+](=O)[O-] | inactive
74 | CCC1=CC2Cc3nc4ccc(Cl)cc4c(N)c3C(C1)C2 (stereo not drawn) | inactive
75 | O=P1(Nc2ccccn2)COc2ccccc2OC1 | inactive
76 | CCOP(=O)(NC(=NC(C)c1ccccc1)NC(C)c1ccccc1)OCC (stereo not drawn) | inactive
77 | CN(CCCl)Cc1cc(Cl)c(NC2=NCCN2)c(Cl)c1 | inactive
78 | CCOP(=O)(Nc1ccc(C)cn1)OCC | inactive
79 | Clc1n[nH]nc1-c1nn[nH][15n]1 | inactive
80 | O=P1(N(CCCl)CCCl)NCCC(C(F)(F)F)O1 (stereo not drawn) | inactive
81 | CC(C)(C)C(=O)NC(Sc1ncccn1)C(Cl)(Cl)Cl (stereo not drawn) | inactive
82 | Cc1ccc(S(=O)(=O)N(CCCN)CCCc2c(C)nc(N)[nH]c2=O)cc1 | inactive
83 | O=P1(Nc2ncccn2)COc2ccccc2OC1 | inactive
84 | Nc1cccc([As](=O)(O)c2ccccc2)c1 | inactive
85 | NS(=O)(=O)c1cccc(NC(=O)COC(=O)C(O)(c2ccccc2)c2ccccc2)c1 | inactive
86 | O=P1(Nc2ccc(Br)cn2)COc2ccccc2OC1 | inactive
87 | O=[As](O)(c1cccs1)c1cccs1 | inactive
88 | Cc1ccc(OCC(=O)OC2CN3CCC2CC3)cc1 (stereo not drawn) | inactive
89 | Cc1nn(-c2ccccc2)c2c1P(=O)(N1CCOCC1)N(C)C(c1ccccc1)=N2 (stereo not drawn) | inactive
90 | Cc1ccc(C(=O)OC2CN3CCC2CC3)cc1 (stereo not drawn) | inactive
91 | CC1CCC(C(C)C)C(OP(=O)(Nc2ccccn2)c2ccccc2)C1 (stereo not drawn) | inactive
92 | CN(C)C1(CNC(=O)c2ccc(S(C)(=O)=O)cc2)CCCCC1 | inactive
93 | CCCC1OP(=O)(Nc2ccccc2)OCC1CC (stereo not drawn) | inactive

Reference: PubChem BioAssay AID720542 (National Center for Advancing Translational Sciences (NCATS), 2013)
